Compound potency records, mixed from different reports. Data source: NIAID ChemDB in PubChem.

Shared fields: cytotoxicity tests; cells: MT-4; read by: MTT; read-out: CC50

CCn is the concentration with n% toxicity to the cells. Lines come from different laboratories, so protocols vary.

compound	result
COc1cc(/C=C/c2nc(NC(=S)Nc3cccc([N+](=O)[O-])c3)c3ccccc3n2)cc(OC)c1OC	3.07 µg/mL
O=C(c1ccccc1)n1c(=O)ccn([C@@H]2C=C[C@@H](O)CC2)c1=O	>25 µg/mL
Cc1cc(C#N)cc(C)c1Oc1nc(Nc2ccc(NS(=O)(=O)c3ccc4ccccc4c3)cc2)nc2ccsc12	>216.3 µM
COc1ccccc1CCNC(=S)NC(=O)c1csc(-c2ccccc2)n1	11.72 µM
Cc1cc(C#N)cc(C)c1Oc1cc(Cl)nc(Nc2ccc(CN3CCOCC3)cc2)c1	7 µM
N#CSc1ccc2nc(NC(=O)CN3C(=O)S/C(=C/c4ccc(Cl)cc4)C3=O)sc2c1	>100 µM
COc1c(C(=O)/C=C(/C)Nc2ccc([N+](=O)[O-])cc2)c(O)c(S(=O)(=O)Oc2ccc(F)cc2)c2occc12	460 µM
COc1ccc(NC(=O)Nc2nc(/C=C/c3cc(OC)c(OC)c(OC)c3)nc3ccccc23)cc1	1.88 µg/mL
Cc1cc(C)cc(S(=O)(=O)c2c(C(=O)N[C@@H]3CCN(Cc4cccnc4)C3)[nH]c3ccc(Cl)cc23)c1	36.52 µM
Clc1cccc(-c2nc(-c3nnc(C45CCC6CC(CC4C6)C5)o3)cs2)c1	>125 µM
CCc1c(C(=O)c2cc(C)cc(C)c2)n(Cc2ccncc2)c(=O)[nH]c1=O	64 µg/mL
CC1=C(C(=O)Nc2ccc(F)c(Cl)c2)C2=NN=C(N)C2C(=O)N1	19.4 µg/mL
CCc1c(Cc2cc(Cl)cc(Cl)c2)n(COC2Cc3ccccc3C2)c(=O)[nH]c1=O	30 µM
O=C1C=C[C@@H](n2ccc(=O)n(C(=O)c3ccccc3)c2=O)CC1	0.5 µg/mL
Cc1cc(C)c(-n2c(SCC(=O)Nc3ccccc3Cl)nc3cnccc32)c(C)c1	19 µM
COc1c(-c2cc(C)[nH]n2)c(O)c(S(=O)(=O)Oc2ccc([N+](=O)[O-])cc2)c2occc12	220 µM
Cc1cc(C)cc(S(=O)(=O)c2c(C(=O)N[C@@H]3CCN(Cc4ccccc4C#N)C3)[nH]c3ccc(Cl)cc23)c1	>186 µM
COc1cc(/C=C/c2nc(NC(=S)Nc3ccc([N+](=O)[O-])cc3)c3ccccc3n2)cc(OC)c1OC	3.87 µg/mL
CC(C)OC(=O)OCOP(=O)(CO[C@H](C)Cn1cnc2c(N)ncnc21)OCOC(=O)OC(C)C	6.73 µg/mL
CCc1c(C(=O)c2cc(C)cc(F)c2)n(Cc2ccncc2)c(=O)[nH]c1=O	51.7 µg/mL
CCc1c(Cc2cc(C)cc(C)c2)n(Cc2ccc(C#CCO)cc2)c(=O)[nH]c1=O	2 µM
Cc1cc(C)c(-n2c(SCC(=O)Nc3ccccc3)nc3cccnc32)c(C)c1	26 µM
CNc1cc2c(=O)c(C(=O)O)cn(C)c2cc1N1CCN(c2cccc(C(F)(F)F)c2)CC1	13.31 µM
O=C1CSC(c2c(Cl)cccc2Cl)N1Cc1ccco1	44.8 µM
Cc1cc2ncc(=O)n(CC(O)CO)c2cc1C	10.95 µg/mL
C#C[C@]1(O)[C@H]2OC[C@]1(CO)O[C@H]2n1ccc(=O)[nH]c1=O	≥30 µM
Cc1cc(C)cc(S(=O)(=O)c2c(C(=O)N[C@@H]3CCN(S(C)(=O)=O)C3)[nH]c3ccc(Cl)cc23)c1	23.95 µM
Cc1cc(C)c(-n2c(SCC(=O)Nc3ccccc3Cl)nc3cccnc32)c(C)c1	3.9 µM
Cc1cn([C@H]2C[C@H](N=[N+]=[N-])[C@@H](CO)O2)c(=O)[nH]c1=O	7.6 µg/mL
COc1ccc(CCN2C(=O)/C(=C\c3cccc(Oc4ccccc4)c3)N(CCc3ccc(OC)c(OC)c3)C2=S)cc1OC	37.8 µg/mL
Cc1cc(C#N)cc(C)c1Oc1nc(NC2CCN(S(=O)(=O)c3ccc4oc(=O)ccc4c3)CC2)nc2ccsc12	56.92 µM
CC1=C(C(=O)Nc2ccc(F)c(F)c2)C2=NN=C(N)C2C(=O)N1	99.03 µg/mL
Clc1ncnc2ncn([C@@H]3C=CC4(CC3)O[C@H](c3ccccc3)[C@@H](c3ccccc3)O4)c12	2.4 µg/mL
CCc1c(C(=O)c2cc(C)cc(C)c2)n(Cc2cccnc2)c(=O)[nH]c1=O	18.7 µg/mL
CCc1c(Cc2cc(Cl)cc(Cl)c2)n(COC2CCc3ccccc32)c(=O)[nH]c1=O	35 µM
O=C(O)/C=C\c1ccc(O)c(O)c1/C(=C/c1ccc(O)c(O)c1)C(=O)O	6.4 µM
CCc1c(Cc2cccc(Cc3[nH]c(=O)[nH]c(=O)c3CC)c2)[nH]c(=O)[nH]c1=O	>100 µM
Cc1cc(F)cc(C(=O)c2c(C(C)C)c(=O)[nH]c(=O)n2Cc2ccnc(C)c2)c1	22.9 µg/mL
CN(C)n1cc(C(=O)O)c(=O)c2cc(N)c(N3CCN(c4ccccn4)CC3)cc21	1.15 µM
Clc1ncnc2c1ncn2[C@H]1C=CC2(CC1)O[C@H](c1ccccc1)[C@@H](c1ccccc1)O2	6.4 µg/mL
COc1c(C(=O)/C=C(/C)Nc2ccc(Cl)cc2)c(O)c(S(=O)(=O)OC2CCCC2)c2occc12	420 µM
CCc1c(Cc2cc(Cl)cc(Cl)c2)n(COC/C=C/c2ccccc2)c(=O)[nH]c1=O	34 µM
Cc1cn([C@H]2C[C@H](N=[N+]=[N-])[C@@H](CO)O2)c(=O)[nH]c1=O	358.5 µg/mL
CCOC(=O)C(CC)C(=O)Cc1cccc(Cc2[nH]c(=O)c(CC)c(O)c2CC)c1	100 µM
COc1cc(/C=C/c2nc(NC(=O)Nc3ccccc3C)c3ccccc3n2)cc(OC)c1OC	1.89 µg/mL
COc1cc(/C=C2/SC(=O)N(CC(=O)Nc3nc4ccc(SC#N)cc4s3)C2=O)ccc1O	>100 µM
CCc1c(Cc2cc(C)cc(C)c2)n(COCCO)c(=O)[nH]c1=O	>100 µM
CCc1c(Cc2cccc(Cc3nc(SC)nc(OC)c3CC)c2)nc(SC)nc1OC	>100 µM
Cc1cc(C#N)cc(C)c1Oc1nc(Nc2ccc(C#N)cc2)nc(N)c1Br	>4.61 µM
O=C(O)c1cn(C2CC2)c2nc(N3CCN(c4nc5ccccc5s4)CC3)ccc2c1=O	1.2 µM
Fc1cccc(-c2nc(-c3nnc(C45CCC6CC(CC4C6)C5)o3)cs2)c1	>125 µM
CCc1c(Cc2cc(Cl)cc(Cl)c2)n(COC/C(C)=C/c2ccccc2)c(=O)[nH]c1=O	32 µM
CCCCCCCCCC(=O)O[C@@]12[C@H](OCOCc3ccccc3)[C@@H](C)[C@@]3(O)[C@@H](C=C(CO)C[C@]4(O)C(=O)C(C)=C[C@@H]34)[C@@H]1C2(C)C	4.39 µg/mL
Cc1cc(C)cc(S(=O)(=O)c2c(C(=O)NS(=O)(=O)c3ccc(F)cc3F)[nH]c3ccc(Cl)cc23)c1	167 µM
Cc1cc(C)c(-n2c(SCC(=O)Nc3ccccc3F)nc3cccnc32)c(C)c1	5.6 µM
COc1cc(/C=C/c2nc(NC(=O)Nc3cccc([N+](=O)[O-])c3)c3ccccc3n2)cc(OC)c1OC	1.17 µg/mL
Cc1ccccc1-c1nc(-c2nnc(C34CCC5CC(CC3C5)C4)o2)cs1	≥10.5 µM
Cc1cc(C)cc(S(=O)(=O)c2c(C(=O)NC3CCNC3)[nH]c3ccc(Cl)cc23)c1	37.31 µM
COc1ccc(CCN2C(=O)/C(=C\c3cc(OC)c(OC)c(OC)c3)N(CCc3ccc(OC)c(OC)c3)C2=S)cc1OC	13.7 µg/mL
CCc1c(Cc2cccc(Cc3nc(SC)[nH]c(=O)c3CC)c2)nc(SC)[nH]c1=O	>100 µM
CC1=C(C(=O)Nc2cccc(C)c2)C2=NN=C(N)C2C(=O)N1	67.2 µg/mL
CCc1c(Cc2cc(C)cc(C)c2)n(COCCF)c(=O)[nH]c1=O	>100 µM
Cc1cc(C#N)cc(C)c1Oc1nc(Nc2ccc(NS(=O)(=O)c3ccc(C#N)cc3)cc2)nc2ccsc12	46.73 µM
COc1ccccc1N1CCN(c2cc3c(cc2N)c(=O)c(C(=O)O)cn3C2CC2)CC1	23.77 µM
CCc1c(Cc2cc(Cl)cc(Cl)c2)n(COCC=C(C)C)c(=O)[nH]c1=O	35 µM
CSCC[C@H](C(=O)N1CCNCC1c1c[nH]c2ccccc12)N1CCCN(C(C)C)CC1	>50 µM
Cc1cc(C#N)cc(C)c1Oc1ccnc(Nc2ccc(CN3CCC(NC(=O)OC(C)(C)C)CC3)cc2)n1	4.34 µM
Cc1ccc(/C=C2/SC(=O)N(CC(=O)Nc3nc4ccc(SC#N)cc4s3)C2=O)cc1	50 µM
CCOCn1c(Cc2cccc(Cc3c(CC)c(=O)[nH]c(=O)n3COCC)c2)c(CC)c(=O)[nH]c1=O	>100 µM
Cc1cc(C#N)cc(C)c1Oc1ccnc(Nc2ccc(CNC3CCN(C(=O)OC(C)(C)C)CC3)cc2)n1	3.51 µM
C=CCOCn1c(Cc2ccccc2)c(CO)c(=O)[nH]c1=O	>100 µM
Cc1cc(C)cc(C(=O)c2c(C(C)C)c(=O)[nH]c(=O)n2Cc2ccccc2)c1	8.01 µg/mL
CSCC[C@H](C)OC(=O)[C@@H](N)c1ccccc1-c1c[nH]c2ccccc12	15 µM
COc1c(-c2cc(C)n(C)n2)c(O)c(S(=O)(=O)OC2CCCCC2)c2occc12	220 µM
Cc1cc(C)cc(Nc2c(C(C)C)c(=O)[nH]c(=O)n2Cc2ccncc2)c1	>100 µg/mL
COc1ccc(/C=C2\C(=O)N(CCc3ccc(OC)c(OC)c3)C(=S)N2CCc2ccc(OC)c(OC)c2)cc1	78.75 µg/mL
Cc1cc(C)c(-n2c(SCC(=O)Nc3ccc(C)cc3[N+](=O)[O-])nc3cccnc32)c(C)c1	144 µM
COc1ccc(/C=C2/SC(=O)N(CC(=O)Nc3nc4ccc(SC#N)cc4s3)C2=O)cc1	>100 µM
CCOCn1c(Cc2ccccc2)c(C(C)C)c(=O)[nH]c1=O	>100 µM
Cc1cc(C)cc(S(=O)(=O)c2c(C(=O)NC3CN(Cc4ccccc4C#N)C3)[nH]c3ccc(Cl)cc23)c1	>235 µM
Cc1cc(C#N)cc(C)c1Oc1nc(Nc2ccc(NS(=O)(=O)c3ccc4oc(=O)ccc4c3)cc2)nc2ccsc12	>209.8 µM
COc1ccc(OS(=O)(=O)c2c3occc3c(OC)c3c(=O)cc(C)oc23)cc1	490 µM
Cc1cc(C)cc(S(=O)(=O)c2c(C(=O)NC3CN(CC(N)=O)C3)[nH]c3ccc(Cl)cc23)c1	25.52 µM
Cc1cc(C#N)cc(C)c1Oc1ccnc(Nc2ccc(CN3CCN(S(C)(=O)=O)CC3)cc2)n1	3.43 µM
Cc1cc(C#N)cc(C)c1Oc1nc(NC2CCN(S(=O)(=O)c3ccccc3)CC2)nc2ccsc12	6.19 µM
C#C[C@@]1(O)[C@@H](CO)O[C@@H](n2ccc(=O)[nH]c2=O)[C@@H]1O	0.03 µM
COc1ccc(CCN2C(=O)/C(=C\c3cccc(Br)c3)N(CCc3ccc(OC)c(OC)c3)C2=S)cc1OC	>109.2 µg/mL
CC(C)c1c(C(=O)c2cc(C(F)(F)F)cc(C(F)(F)F)c2)n(Cc2ccccn2)c(=O)[nH]c1=O	11.7 µg/mL
Cc1cc(C)cc(S(=O)(=O)c2c(C(=O)N[C@H]3CCNC3)[nH]c3ccc(Cl)cc23)c1	10.02 µM

For reference, 5 entries again:

| compound | result |
|---|---|
| Clc1cccc(-c2nc(-c3nnc(C45CCC6CC(CC4C6)C5)o3)cs2)c1 | >125 µM |
| Cc1cc(C)cc(S(=O)(=O)c2c(C(=O)N[C@@H]3CCN(S(C)(=O)=O)C3)[nH]c3ccc(Cl)cc23)c1 | 23.95 µM |
| CCc1c(Cc2cccc(Cc3nc(SC)[nH]c(=O)c3CC)c2)nc(SC)[nH]c1=O | >100 µM |
| CCc1c(C(=O)c2cc(C)cc(C)c2)n(Cc2ccncc2)c(=O)[nH]c1=O | 64 µg/mL |
| COc1cc(/C=C/c2nc(NC(=O)Nc3cccc([N+](=O)[O-])c3)c3ccccc3n2)cc(OC)c1OC | 1.17 µg/mL |